PubChem BioAssay AID624099 | ICCB-Longwood, 2012
Assay: 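Host factors E2 relies on to silence an HPV18 LCR reporter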 (primary screen). Cell system: human C33A cervical carcinoma cells (HPV-negative) stably expressing BPV1 E2 and an HPV18 LCR luciferase reporter. Reagent: siRNA pool against human genes, 40 nM. Time to read-out: 72 h. Read-out: 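HPV18 LCR reporter light per well, converted to plate-wise z-scores that exclude control wells, and averaged over triplicate plates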. Direction: mean z-score and z-score: higher = stronger reporter signal, weaker E2 silencing. Call rule: 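Hit if mean z-score reaches 2 and two or more of three replicate z-scores also reach 2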.
Shown is a random part of about 21,000 deposited reagents. 497 of them (2.4%) count as active. 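Higher z means weaker E2 silencing; only reporter increases were scored, and knock-downs that hurt cell survival may mask genuine repressor factors.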 Entries without a mark were called inactive. Reagent sequences are not shown.

The opening 9 records as a preview:
no.	target	mean z-score	z-score, replicate A	z-score, replicate B	z-score, replicate C
1	GTSF1L	0.18	0.16	0.61	-0.23
2	TM9SF4	-0.97	-1.06	-0.89	-0.96
3	ATRX	-0.35	-0.36	-0.41	-0.29
4	DUSP13B	-1.32	-1.15	-1.47	-1.34
5	ADGRL1	-0.29	-0.62	0.01	-0.27
6	NAE1	0.84	0.99	0.9	0.64
7	PECAM1	0.28	0.47	0.24	0.13
8	SHE	-0.67	-1.06	-0.86	-0.09
9	MGAM	1.51	1.52	1.55	1.46

The listing, repeating the preview:
no.	target	mean z-score	z-score, replicate A	z-score, replicate B	z-score, replicate C
1	GTSF1L	0.18	0.16	0.61	-0.23
2	TM9SF4	-0.97	-1.06	-0.89	-0.96
3	ATRX	-0.35	-0.36	-0.41	-0.29
4	DUSP13B	-1.32	-1.15	-1.47	-1.34
5	ADGRL1	-0.29	-0.62	0.01	-0.27
6	NAE1	0.84	0.99	0.9	0.64
7	PECAM1	0.28	0.47	0.24	0.13
8	SHE	-0.67	-1.06	-0.86	-0.09
9	MGAM	1.51	1.52	1.55	1.46
10	ZNF596	-1.04	-0.96	-1.37	-0.78
11	ITGB1	-0.04	0	-0.11	-0.01
12	LOC283117 (retired record)	-0.66	-0.61	-0.72	-0.65
13	OR10G3	3.25 (active)	2.82	3.89	3.05
14	TSPYL2	-0.33	-0.95	-0.37	0.34
15	MIR600HG	1.29	1.22	1.7	0.95
16	NADK	-0.74	-0.29	-1.34	-0.58
17	ZNF394	-0.12	-0.09	-0.18	-0.1
18	LOC388565 (retired record)	0.68	0.55	0.88	0.6
19	UBE3A	-0.28	-0.06	-0.15	-0.64
20	EIF4A3	0.12	0.22	0.24	-0.11
21	GAS2L1P2	0.94	1.16	0.72	0.93
22	PHLDA1	1.46	1.51	1.38	1.5
23	TMEM202	0.29	0.47	0.09	0.32
24	MTOR	-1.52	-1.37	-1.76	-1.42
25	CDC42BPB	-0.45	-0.5	-0.56	-0.3
26	SOCS6	0.19	0.02	0.35	0.21
27	ACTR3B	-0.17	-0.09	-0.06	-0.35
28	FEN1	-0.03	0.03	0.1	-0.23
29	DAPL1	0.11	-0.15	0.54	-0.05
30	BTNL8	-1.18	-1.15	-1.32	-1.08
31	EZHIP	1.48	1.15	1.79	1.51
32	PPP1CA	1.41	1.37	1.47	1.4
33	SCEL	-0.51	-0.56	-0.25	-0.7
34	FXYD1	1.61	1.6	1.21	2.01
35	TMEM268	0.76	0.4	0.77	1.11
36	CCDC102B	-1.37	-1.19	-1.31	-1.62
37	KRTAP19-6	-1.48	-1.29	-1.68	-1.47
38	KRT5	-0.45	-0.49	-0.38	-0.47
39	FDXR	-1.12	-1.38	-1.22	-0.76
40	RUSF1	0.25	0.05	0.08	0.62
41	OR5I1	-0.59	-0.41	-0.87	-0.5
42	SLC67A1-AS	1.07	1.43	0.84	0.95
43	BMAL2	0.06	-0.05	0.13	0.09
44	PIPOX	-0.98	-0.63	-1.19	-1.12
45	LOC401087 (retired record)	0.4	0.64	-0.11	0.67
46	GLS	-0.28	-0.41	-0.24	-0.2
47	ASB16	-0.13	-0.09	0.12	-0.44
48	MGC27382	0.36	0.67	0.02	0.38
49	XCL1	1.54	1.28	1.79	1.56
50	LOC401945 (retired record)	-0.22	0.01	-0.15	-0.53
51	CEP57	1.16	1.26	1.01	1.19
52	FBXO16	0.33	0.6	-0.39	0.79
53	AK5	0.4	0.03	0.76	0.41
54	XTBD1	0.54	0.19	0.55	0.88
55	MAST3	3.13 (active)	2.16	4.07	3.17
56	UBXN4	-0.75	-0.91	-0.62	-0.7
57	PTPN7	0.47	0.29	0.58	0.55
58	DDIT3	-0.57	-0.46	-0.97	-0.27
59	ZNRF2	0.61	0.67	0.54	0.52
60	LOC402295 (retired record)	0.22	0.26	0.2	0.21
61	UBE2DNL	0.36	0.09	0.46	0.52
62	PRICKLE2	1.63	1.28	1.79	1.83
63	SYNJ2BP	0.72	0.49	0.92	0.75
64	GLMN	-0.54	-0.56	-0.49	-0.57
65	DHRSX	-0.34	-0.82	0.13	0.2
66	UTS2	-0.09	-0.15	-0.1	-0.01
67	SEC31A	-1.33	-1.41	-1.52	-1.07
68	RIN2	0.17	-0.03	0.13	0.42
69	NSUN2	0.16	0.59	0.11	-0.22
70	C3orf80	0.09	-0.27	-0.06	0.6
71	PMCH	0.07	-0.3	0.17	0.33
72	COPZ1	-1.34	-1.5	-1.17	-1.35
73	LOC400763 (retired record)	-0.58	-0.61	-0.44	-0.68
